Assays:
[1] = test system: penile tissue explants; assay: MTT viability assay on penile tissue explants; assay type: cell-based, human; settings: 24 h at 37°C, then MTT 2 h; M48U1 ten-fold dilutions, highest concentrations tested; nonoxynol-9 at 500 ng/mL; two independent experiments in triplicates
Excerpt: Cervical tissue was obtained from patients undergoing planned therapeutic hysterectomy at St. George's Hospital in London, United Kingdom. Surgically resected specimens of colorectal tissue were collected at St. George's Hospital, London, United Kingdom. Penile tissue (glans) was obtained from individuals undergoing gender reassignment surgery at Charing Cross Hospital. All tissues were collected after signed informed consent was received from all patients and under protocols approved by the Local Research Ethics Committee (National Research Ethic Service NHS). On arrival in the laboratory, resected tissue was cut into 2–3 mm^3 explants comprising both epithelial and stromal tissue or muscularis mucosae, depending on the tissue, as described previously, [22].
Penile tissues and PM-1 T cells were incubated in complete RPMI medium supplemented with ten-fold dilutions of M48U1 for 24 h at 37°C. Nonoxynol-9 microbicide (tested at 500 ng/mL) was employed as cytotoxic reference. […] For tissue, after releasing the formazan in ethanol overnight, cytotoxicity was determined by measuring the optical density of the purple formazan product at 570–690 nm using Synergy HT multi-detection microplate reader. For PM-1 cells, the absorption of the formazan product was determined after lysis of the cells.

[2] = test system: PM-1 T cells; assay: MTT viability assay on PM-1 T cells; assay type: cell-based; settings: 24 h at 37°C, then MTT 2 h; M48U1 ten-fold dilutions, highest concentrations tested; nonoxynol-9 at 500 ng/mL; two independent experiments in triplicates
Protocol: Penile tissues and PM-1 T cells were incubated in complete RPMI medium supplemented with ten-fold dilutions of M48U1 for 24 h at 37°C. Nonoxynol-9 microbicide (tested at 500 ng/mL) was employed as cytotoxic reference. The compounds were removed and the tissue explants and cells were incubated for 2 h in medium containing 500 µg/mL of 3-(4,5-dimethylthiazol-2-yl)-2,5-diphenyltetrazolium bromide (MTT). For tissue, after releasing the formazan in ethanol overnight, cytotoxicity was determined by measuring the optical density of the purple formazan product at 570–690 nm using Synergy HT multi-detection microplate reader. For PM-1 cells, the absorption of the formazan product was determined after lysis of the cells.

[3] = test system: SHIV162P3; assay: TZM-bl assay, SHIV162P3; assay type: cell-based, simian-human immunodeficiency virus; settings: IC50 SHIV162P3 / IC50 HIV-1SF162, TZM-bl
Protocol: (§1) Primary HIV-1SF162 or SHIV162P3 were briefly amplified in PHA-IL2 activated human PBMC. Corresponding Env expressing constructs were prepared by DNA amplification of the complete Env gene from PBMC co-cultures and subsequent cloning into pSV7d or pcDNA4/TO expression vector (Invitrogen BV, Groningen, The Netherlands). Sequencing of the pseudovirus construct and phylogenetic analysis of the complete gp160 confirmed the relation between the pseudovirus and the associated original virus.
Adherent CD4 and CCR5 expressing TZM-bl cell line with a luciferase reporter gene under HIV LTR control (NIH AIDS Research and Reference Reagent Program) was cultured in DMEM containing 1% L-glutamine, 10% heat-inactivated FBS, and 50 µg/mL gentamicin.
(§2) The inhibitory activity of M48U1 against either HIV-1SF162, SHIV162P3 or corresponding pseudoviruses was measured as follows: 50 µL of (pseudo)virus suspension and 50 µL of a serial dilution of M48U1 or 50 µL medium (negative control) were pre-incubated for 30 min. […] Next the luciferase activity (proportional to the amount of infectious virus particles) was measured using a TriStar LB941 luminometer (Berthold Technologies GmbH & Co.KG., Bad Wildbad, Germany) and expressed as relative light units (RLU). Finally, the inhibitory activity was calculated in GraphPad Prism 5.03 using non-linear regression (GraphPad Software, San Diego, CA, USA). […]

[4] = test system: PV SHIV162P3; assay: TZM-bl assay, pseudovirus with SHIV162P3 envelope; assay type: cell-based, simian-human immunodeficiency virus; settings: IC50 PV SHIV162P3 / IC50 PV HIV-1SF162, TZM-bl
Protocol: as §1
Pseudoviruses were generated in a 24-well plate by co-transfection of 2×10^5 human embryonic kidney (HEK) 293T cells (obtained from ATCC) with pNL4-3. […]
as §2

[5] = test system: ME-180 endocervical cells; settings: highest concentrations tested; cited from earlier work
Protocol: (§3) These positive results prompted further assessment of the activity of M48U1 in genital and colorectal tissue explants models. Nonpolarized cervical and colorectal explant tissues were pre-treated with M48U1 for 1 h at 37°C followed by exposure to HIV-1Ba-L for 2 h in the continued presence of compound.

[6] = test system: co-cultures of monocyte-derived dendritic cells (MO-DC) and allogeneic CD4+ T cells; settings: highest concentrations tested; cited from earlier work
Protocol: as §3

[7] = molecular target: gp120; settings: cited from earlier work

## CC(C)C[C@@H]1NC(=O)CNC(=O)[C@H](CC(C)C)NC(=O)[C@H](CO)NC(=O)[C@H](CCCCN)NC(=O)[C@@H]2CSSC[C@@H](C(=O)N[C@H](C(N)=O)C(C)C)NC(=O)[C@H](C)NC(=O)[C@@H]3CSSC[C@H](NC(=O)[C@H](Cc4ccccc4)NC(=O)[C@H](Cc4cnc[nH]4)NC(=O)[C@H](CC(C)C)NC(=O)[C@H](CC(N)=O)NC(=O)CCSSC[C@H](NC(=O)[C@H](CCCNC(=N)N)NC(=O)CNC(=O)[C@H](CC(C)C)NC1=O)C(=O)N[C@@H](C)C(=O)N1CCC[C@@H]1C(=O)N[C@@H]([C@@H](C)O)C(=O)N[C@@H](Cc1ccc(OCC4CCCCC4)cc1)C(=O)N3)C(=O)N[C@@H](CCC(N)=O)C(=O)N[C@@H](CC(C)C)C(=O)N[C@@H](CCCNC(=N)N)C(=O)N2 [M48U1]
[1]
  Cytotoxicity (MTT) in penile tissue: no apparent cytotoxicity
[2]
  Cytotoxicity (MTT) in PM-1 T-cell line: no apparent cytotoxicity
[3]
  Ratio SHIV/SF (virus): 26
[4]
  Ratio SHIV/SF (pseudovirus): 11
[5]
  Cytotoxicity (MTT) in ME-180 endocervical cells: no apparent cytotoxicity
[6]
  Cytotoxicity (MTT) in MO-DC / allogeneic CD4+ T cell co-cultures: no apparent cytotoxicity
[7]
  Affinity for gp120: sub-nanomolar
